From US10660336B2 (priority 2014, dated 2020) come the findings set out here.

The subject of this assay is pepper mottle virus (PepMoV). The note with it: Nicotiana benthamiana; compound mixed with inoculum 30 min before inoculation; Trichodermin 50, 10, 5, 1 μM; Trichoderminol 2000, 1000, 500, 100 μM; 3, 6, 9, 12 dpi; versus DMSO control.

Regarding `CC(=O)O[C@@H]1C[C@H]2O[C@@H]3C=C(CO)CC[C@]3(C)[C@]1(C)[C@]21CO1`, the “spreading rate of the pepper mottle virus (green fluorescent protein in upper leaves under UV, viral RNA and coat protein)” value was “inhibits spreading rate of the pepper mottle virus”.
